Experimental data as given in PMC5613637.

How the values were obtained:
Assay in all cases: purified protein
Conditions in all cases: 25.0 °C
[1] = tested on: COCCC(=O)OCOc1ccc2c(c1)Oc1cc(OCOC(=O)CCOC)ccc1C21OC(=O)c2ccccc21
[2] = tested on: CCCCCC(=O)OCOc1ccc2c(c1)Oc1cc(OCOC(=O)CCCCC)ccc1C21OC(=O)c2ccccc21
[3] = tested on: CC(C)(C)C(=O)OCOc1ccc2c(c1)Oc1cc(OCOC(=O)C(C)(C)C)ccc1C21OC(=O)c2ccccc21
[4] = tested on: CCCCCCCCCCCC(=O)Oc1ccc([N+](=O)[O-])cc1
[5] = tested on: O=C1OC2(c3ccc(OCOC(=O)C4CCCC4)cc3Oc3cc(OCOC(=O)C4CCCC4)ccc32)c2ccccc21
[6] = tested on: CCCCCCCC(=O)Oc1ccc([N+](=O)[O-])cc1
[7] = tested on: O=C1OC2(c3ccc(OCOC(=O)C4CCCCC4)cc3Oc3cc(OCOC(=O)C4CCCCC4)ccc32)c2ccccc21
[8] = tested on: CCCC(=O)Oc1ccc([N+](=O)[O-])cc1
[9] = tested on: C=C(C)C(=O)OCOc1ccc2c(c1)Oc1cc(OCOC(=O)C(=C)C)ccc1C21OC(=O)c2ccccc21
[10] = tested on: O=C1OC2(c3ccc(OCOC(=O)C4CCC4)cc3Oc3cc(OCOC(=O)C4CCC4)ccc32)c2ccccc21
[11] = tested on: CC(=O)OCOc1ccc2c(c1)Oc1cc(OCOC(C)=O)ccc1C21OC(=O)c2ccccc21
[12] = tested on: O=C(OCOc1ccc2c(c1)Oc1cc(OCOC(=O)c3ccccc3)ccc1C21OC(=O)c2ccccc21)c1ccccc1
[13] = tested on: CCCCC(=O)OCOc1ccc2c(c1)Oc1cc(OCOC(=O)CCCC)ccc1C21OC(=O)c2ccccc21
[14] = tested on: CCC(=O)OCOc1ccc2c(c1)Oc1cc(OCOC(=O)CC)ccc1C21OC(=O)c2ccccc21
[15] = tested on: O=C(OCOc1ccc2c(c1)Oc1cc(OCOC(=O)c3ccco3)ccc1C21OC(=O)c2ccccc21)c1ccco1
[16] = tested on: CCCC(=O)OCOc1ccc2c(c1)Oc1cc(OCOC(=O)CCC)ccc1C21OC(=O)c2ccccc21
[17] = tested on: CC(=O)Oc1ccc([N+](=O)[O-])cc1
[18] = tested on: O=C(CC(F)(F)F)OCOc1ccc2c(c1)Oc1cc(OCOC(=O)CC(F)(F)F)ccc1C21OC(=O)c2ccccc21
[19] = tested on: COCC(=O)OCOc1ccc2c(c1)Oc1cc(OCOC(=O)COC)ccc1C21OC(=O)c2ccccc21

Substance: FTT0941c (Francisella tularensis subsp. tularensis SCHU S4)
- Km [1]: 8.3 ± 1.4 µM
- kcat/Km [1]: 340 M⁻¹ s⁻¹
- Km [2]: 0.42 ± 0.10 µM
- kcat/Km [2]: 120 M⁻¹ s⁻¹
- Km [3]: 0.48 ± 0.04 µM
- kcat/Km [3]: 26 M⁻¹ s⁻¹
- Km [4]: 1800 ± 600 µM
- kcat/Km [4]: 230 M⁻¹ s⁻¹
- Km [5]: 4.2 ± 0.4 µM
- kcat/Km [5]: 180 M⁻¹ s⁻¹
- Km [6]: 240 ± 150 µM
- kcat/Km [6]: 3400 M⁻¹ s⁻¹
- Km [7]: 17 ± 2 µM
- kcat/Km [7]: 530 M⁻¹ s⁻¹
- Km [8]: 4000 ± 1900 µM
- kcat/Km [8]: 1900 M⁻¹ s⁻¹
- Km [9]: 0.48 ± 0.05 µM
- kcat/Km [9]: 130 M⁻¹ s⁻¹
- Km [10]: 0.38 ± 0.06 µM
- kcat/Km [10]: 140 M⁻¹ s⁻¹
- Km [11]: 1.1 ± 0.5 µM
- kcat/Km [11]: 370 M⁻¹ s⁻¹
- Km [12]: 1.1 ± 0.3 µM
- kcat/Km [12]: 380 M⁻¹ s⁻¹
- Km [13]: 1.2 ± 0.1 µM
- kcat/Km [13]: 180 M⁻¹ s⁻¹
- Km [14]: 2.7 ± 0.7 µM
- kcat/Km [14]: 250 M⁻¹ s⁻¹
- Km [15]: 5.9 ± 2.0 µM
- kcat/Km [15]: 160 M⁻¹ s⁻¹
- Km [16]: 2.2 ± 0.4 µM
- kcat/Km [16]: 400 M⁻¹ s⁻¹
- Km [17]: 920 ± 220 µM
- kcat/Km [17]: 5000 M⁻¹ s⁻¹
- Km [18]: 780 ± 40 µM
- kcat/Km [18]: 150 M⁻¹ s⁻¹
- Km [19]: 83 ± 16 µM
- kcat/Km [19]: 50 M⁻¹ s⁻¹
